{"source": "paper PMC7180491", "about": "“Synthesis and Biological Evaluation of Novel (thio)semicarbazone-Based Benzimidazoles as Antiviral Agents against Human Respiratory Viruses” (Molecules, 2020)", "key": {"[1]": {"test_system": "Influenza A/H1N1 (A/Ned/378/05)", "experiment": "Antiviral assay against influenza A/H1N1 in MDCK cells, MTS readout", "assay_type": "cell-based, human influenza virus", "conditions": "read-out: Antiviral EC50 Influenza A/H1N1"}, "[2]": {"test_system": "Influenza A/H3N2 (A/HK/7/87)", "experiment": "Antiviral assay against influenza A/H3N2 in MDCK cells, MTS readout", "assay_type": "cell-based, human influenza virus", "conditions": "read-out: Antiviral EC50 Influenza A/H3N2"}, "human coronavirus 229E": {"test_system": "human coronavirus 229E", "experiment": "Antiviral assay against human coronavirus 229E in HEL cells, MTS readout", "assay_type": "cell-based", "conditions": "read-out: Antiviral EC50 Coronavirus 229E"}, "[3]": {"test_system": "Respiratory syncytial virus (RSV; strain Long)", "experiment": "Antiviral assay against RSV, microscopic inspection of the viral CPE", "assay_type": "cell-based", "conditions": "read-out: Anti-RSV EC50, microscopic method"}, "[4]": {"test_system": "Respiratory syncytial virus (RSV; strain Long)", "conditions": "read-out: Antiviral EC50 RSV; MTS assay, Hep-2 cells"}}, "note": "pEC50: −log10 of the molar value. Where two headings read alike, the source gives them in different places. Only a part of the results on these compounds is given; other tests are left out.", "data": [{"smiles": "CCN(CC)CCn1c(Cn2nc3ccccc3n2)nc2cc(C(C)=NN)ccc21", "values": [{"measurement": "pEC50", "setting": "[1]", "result": "< 4.00"}, {"measurement": "pEC50", "setting": "[2]", "result": "< 4.00"}, {"measurement": "pEC50", "setting": "human coronavirus 229E", "result": "< 4.00"}, {"measurement": "pEC50", "setting": "[3]", "result": 5.62}, {"measurement": "pEC50", "setting": "[4]", "result": 5.62}]}]}
